# Source: publication PMC7181871, “Cryo-EM structure of the PlexinC1/A39R complex reveals inter-domain interactions critical for ligand-induced activation” (2020)
# Biological target: full-length human PlexinC1 (residues 1–1568), purified, human, O60486 35-1568
substance,measurement,value
"A39R (residues 15–399) from ectromelia virus, His8-tagged N-glycosylated (3 consensus motifs of N-glycosylation)",stoichiometry N (a39r per plexinc1 (2:2)),1
